Tested on: pLAI reporter virus
Assay type: cell-based, HIV
Conditions: EC50 (50% HS)/EC50 (CCM)

Compound	RLUC 50% HS Shift [×]
C[C@H]1CC[C@]2(CC(=O)N(Cc3cccc4ccccc34)O2)[C@H]2CN1C(=O)c1c(O)c(=O)c(C(=O)NCc3c(F)cc(F)cc3F)cn12 [Example 106, (3′S,5S,7′R)-12′-hydroxy-3′-methyl-2-(naphthalen-1-ylmethyl)-1′,3,11′-trioxo-N-(2,4,6-trifluorobenzyl)-1′,4′,5′,11′-tetrahydro-3′H,7′H-spiro[isoxazolidine-5,6′-[2,7]methanopyrido[1,2-a][1,4]diazonine]-10′-carboxamide]	321
C[C@H]1CC[C@]2(CC(=O)N(Cc3ccc4ccccc4c3)O2)[C@H]2CN1C(=O)c1c(O)c(=O)c(C(=O)NCc3c(F)cc(F)cc3F)cn12 [Example 107, (3′S,5S,7′R)-12′-hydroxy-3′-methyl-2-(naphthalen-2-ylmethyl)-1′,3,11′-trioxo-N-(2,4,6-trifluorobenzyl)-1′,4′,5′,11′-tetrahydro-3′H,7′H-spiro[isoxazolidine-5,6′-[2,7]methanopyrido[1,2-a][1,4]diazonine]-10′-carboxamide]	34
C[C@H]1CC[C@]2(CC(=O)N(C)O2)[C@H]2CN1C(=O)c1c(O)c(=O)c(C(=O)NCc3c(F)cc(F)cc3F)cn12 [Example 108, (3′S,5S,7′R)-12′-hydroxy-2,3′-dimethyl-1′,3,11′-trioxo-N-(2,4,6-trifluorobenzyl)-1′,4′,5′,11′-tetrahydro-3′H,7′H-spiro[isoxazolidine-5,6′-[2,7]methanopyrido[1,2-a][1,4]diazonine]-10′-carboxamide]	16
C[C@H]1CC[C@]2(CC(=O)N(Cc3ccc(Cl)cc3)O2)[C@H]2CN1C(=O)c1c(O)c(=O)c(C(=O)NCc3c(F)cc(F)cc3F)cn12 [Example 109, (3′S,5S,7′R)-2-(4-chlorobenzyl)-12′-hydroxy-3′-methyl-1′,3,11′-trioxo-N-(2,4,6-trifluorobenzyl)-1′,4′,5′,11′-tetrahydro-3′H,7′H-spiro[isoxazolidine-5,6′-[2,7]methanopyrido[1,2-a][1,4]diazonine]-10′-carboxamide]	13
C[C@H]1CC[C@]2(CC(=O)N(Cc3ccc(F)cc3F)O2)[C@H]2CN1C(=O)c1c(O)c(=O)c(C(=O)NCc3c(F)cc(F)cc3F)cn12 [Example 110, (3′S,5S,7′R)-2-(2,4-difluorobenzyl)-12′-hydroxy-3′-methyl-1′,3,11′-trioxo-N-(2,4,6-trifluorobenzyl)-1′,4′,5′,11′-tetrahydro-3′H,7′H-spiro[isoxazolidine-5,6′-[2,7]methanopyrido[1,2-a][1,4]diazonine]-10′-carboxamide]	10
C[C@H]1CC[C@]2(CC(=O)N(Cc3cccc(C(F)(F)F)c3)O2)[C@H]2CN1C(=O)c1c(O)c(=O)c(C(=O)NCc3c(F)cc(F)cc3F)cn12 [Example 111, (3′S,5S,7′R)-12′-hydroxy-3′-methyl-1′,3,11′-trioxo-N-(2,4,6-trifluorobenzyl)-2-(3-(trifluoromethyl)benzyl)-1′,4′,5′,11′-tetrahydro-3′H,7′H-spiro[isoxazolidine-5,6′-[2,7]methanopyrido[1,2-a][1,4]diazonine]-10′-carboxamide]	5
C[C@H]1CC[C@]2(CC(=O)N(Cc3ccc4ncsc4c3)O2)[C@H]2CN1C(=O)c1c(O)c(=O)c(C(=O)NCc3c(F)cc(F)cc3F)cn12 [Example 112, (3′S,5S,7′R)-2-(benzo[d]thiazol-6-ylmethyl)-12′-hydroxy-3′-methyl-1′,3,11′-trioxo-N-(2,4,6-trifluorobenzyl)-1′,4′,5′,11′-tetrahydro-3′H,7′H-spiro[isoxazolidine-5,6′-[2,7]methanopyrido[1,2-a][1,4]diazonine]-10′-carboxamide]	2
C[C@H]1CC[C@]2(CC(=O)N(Cc3ccc4scnc4c3)O2)[C@H]2CN1C(=O)c1c(O)c(=O)c(C(=O)NCc3c(F)cc(F)cc3F)cn12 [Example 113, (3′S,5S,7′R)-2-(benzo[d]thiazol-5-ylmethyl)-12′-hydroxy-3′-methyl-1′,3,11′-trioxo-N-(2,4,6-trifluorobenzyl)-1′,4′,5′,11′-tetrahydro-3′H,7′H-spiro[isoxazolidine-5,6′-[2,7]methanopyrido[1,2-a][1,4]diazonine]-10′-carboxamide]	7
C[C@H]1CC[C@]2(CC(=O)N(Cc3cccc4[nH]cnc34)O2)[C@H]2CN1C(=O)c1c(O)c(=O)c(C(=O)NCc3c(F)cc(F)cc3F)cn12 [Example 114, (3′S,5S,7′R)-2-((1H-benzo[d]imidazol-4-yl)methyl)-12′-hydroxy-3′-methyl-1′,3,11′-trioxo-N-(2,4,6-trifluorobenzyl)-1′,4′,5′,11′-tetrahydro-3′H,7′H-spiro[isoxazolidine-5,6′-[2,7]methanopyrido[1,2-a][1,4]diazonine]-10′-carboxamide]	3
C[C@H]1CC[C@]2(CC(=O)N(Cc3ccc(C#N)cc3)O2)[C@H]2CN1C(=O)c1c(O)c(=O)c(C(=O)NCc3c(F)cc(F)cc3F)cn12 [Example 118, (3′S,5S,7′R)-2-(4-cyanobenzyl)-12′-hydroxy-3′-methyl-1′,3,11′-trioxo-N-(2,4,6-trifluorobenzyl)-1′,4′,5′,11′-tetrahydro-3′H,7′H-spiro[isoxazolidine-5,6′-[2,7]methanopyrido[1,2-a][1,4]diazonine]-10′-carboxamide]	1
COc1ccc(CN2O[C@@]3(CC[C@H](C)N4C[C@H]3n3cc(C(=O)NCc5c(F)cc(F)cc5F)c(=O)c(O)c3C4=O)CC2=O)cc1 [Example 119, (3′S,5S,7′R)-12′-hydroxy-2-(4-methoxybenzyl)-3′-methyl-1′,3,11′-trioxo-N-(2,4,6-trifluorobenzyl)-1′,4′,5′,11′-tetrahydro-3′H,7′H-spiro[isoxazolidine-5,6′-[2,7]methanopyrido[1,2-a][1,4]diazonine]-10′-carboxamide]	5
C[C@H]1CC[C@]2(CCC(=O)N2)[C@H]2CN1C(=O)c1c(O)c(=O)c(C(=O)NCc3c(F)cc(F)cc3F)cn12 [Example 121, (2S,3′S,7′R)-12′-hydroxy-3′-methyl-1′,5,11′-trioxo-N-(2,4,6-trifluorobenzyl)-1′,4′,5′,11′-tetrahydro-3′H,7′H-spiro[pyrrolidine-2,6′-[2,7]methanopyrido[1,2-a][1,4]diazonine]-10′-carboxamide]	1
C[C@H]1CC[C@]2(CCCN2)[C@H]2CN1C(=O)c1c(O)c(=O)c(C(=O)NCc3c(F)cc(F)cc3F)cn12 [Example 122, (2R,3′S,7′R)-12′-hydroxy-3′-methyl-1′,11′-dioxo-N-(2,4,6-trifluorobenzyl)-1′,4′,5′,11′-tetrahydro-3′H,7′H-spiro[pyrrolidine-2,6′-[2,7]methanopyrido[1,2-a][1,4]diazonine]-10′-carboxamide]	8
C[C@H]1CC[C@@]2(CC(O)CO2)[C@H]2CN1C(=O)c1c(O)c(=O)c(C(=O)NCc3c(F)cc(F)cc3F)cn12 (stereo partly drawn) [Example 123, (2R,3′S,7′R)-4,12′-dihydroxy-3′-methyl-1′,11′-dioxo-N-(2,4,6-trifluorobenzyl)-1′,4,4′,5,5′,11′-hexahydro-3H,3′H,7′H-spiro[furan-2,6′-[2,7]methanopyrido[1,2-a][1,4]diazonine]-10′-carboxamide]	1
CC1C[C@@]2(CC[C@H](C)N3C[C@H]2n2cc(C(=O)NCc4c(F)cc(F)cc4F)c(=O)c(O)c2C3=O)OCO1 (stereo partly drawn) [Example 124, (3′S,4R,7′R)-12′-hydroxy-3′,6-dimethyl-1′,11′-dioxo-N-(2,4,6-trifluorobenzyl)-1′,4′,5′,11′-tetrahydro-3′H,7′H-spiro[[1,3]dioxane-4,6′-[2,7]methanopyrido[1,2-a][1,4]diazonine]-10′-carboxamide]	2
C[C@H]1CCC2(OCCO2)[C@H]2CN1C(=O)c1c(O)c(=O)c(C(=O)NCc3c(F)cc(F)cc3F)cn12 [Example 125, (3′S,7′R)-12′-hydroxy-3′-methyl-1′,11′-dioxo-N-(2,4,6-trifluorobenzyl)-1′,4′,5′,11′-tetrahydro-3′H,7′H-spiro[[1,3]dioxolane-2,6′-[2,7]methanopyrido[1,2-a][1,4]diazonine]-10′-carboxamide]	151
C[C@H]1CO[C@]2(CC[C@H](C)N3C[C@H]2n2cc(C(=O)NCc4c(F)cc(F)cc4F)c(=O)c(O)c2C3=O)O1 [Example 127, (2R,3′S,4S,7′R)-12′-hydroxy-3′,4-dimethyl-1′,11′-dioxo-N-(2,4,6-trifluorobenzyl)-1′,4′,5′,11′-tetrahydro-3′H,7′H-spiro[[1,3]dioxolane-2,6′-[2,7]methanopyrido[1,2-a][1,4]diazonine]-10′-carboxamide]	133
C[C@H]1CCC2(OCCCO2)[C@H]2CN1C(=O)c1c(O)c(=O)c(C(=O)NCc3c(F)cc(F)cc3F)cn12 [Example 128, (3′S,7′R)-12′-hydroxy-3′-methyl-1′,11′-dioxo-N-(2,4,6-trifluorobenzyl)-1′,4′,5′,11′-tetrahydro-3′H,7′H-spiro[[1,3]dioxane-2,6′-[2,7]methanopyrido[1,2-a][1,4]diazonine]-10′-carboxamide]	92
C[C@H]1CCC2(OCCO2)[C@H]2CN1C(=O)c1c(O)c(=O)c(C(=O)NCc3ccc(F)cc3F)cn12 [Example 129, (3′S,7′R)—N-(2,4-difluorobenzyl)-12′-hydroxy-3′-methyl-1′,11′-dioxo-1′,4′,5′,11′-tetrahydro-3′H,7′H-spiro[[1,3]dioxolane-2,6′-[2,7]methanopyrido[1,2-a][1,4]diazonine]-10′-carboxamide]	40
C[C@H]1CC[C@]2(COCO2)[C@H]2CN1C(=O)c1c(O)c(=O)c(C(=O)NCc3c(F)cc(F)cc3F)cn12 [Example 130, (3′S,4R,7′R)-12′-hydroxy-3′-methyl-1′,11′-dioxo-N-(2,4,6-trifluorobenzyl)-1′,4′,5′,11′-tetrahydro-3′H,7′H-spiro[[1,3]dioxolane-4,6′-[2,7]methanopyrido[1,2-a][1,4]diazonine]-10′-carboxamide]	1815
